This passage reports EC50 results from US20230312684A1, “Neuropilin and angiotensin converting enzyme 2 fusion peptides for treating viral infections” (published 2023).

For this assay, the target named is RSV-F (amino acids 1-529), (Extracellular Domain) protein (His tag), ABIN2006856 (respiratory syncytial virus) (UniProt P03420). The assay is described as follows: ELISA, RSV F coated, anti-human IgG-HRP.

Take “SEQ ID NO: 193, b1b2-Fc (NRP1, Y297A, S345A, Y353A, no VEGF binding) (Fc fusion)”: the EC50 stood at 749 nM.
The value for “SEQ ID NO: 208, Nrp1(b1) Nrp2(b2)-Fc (Y297A, S345A, Y353A, no VEGF binding) (Fc fusion)” was 1570 nM.

As usually defined, the EC50 is the concentration that produces a half-maximal response. A high value points to a less potent agent.
